From patent US20230014151A1, “COMBINATION ANTIVIRAL THERAPY FOR MEASLES” (The Trustees of Columbia University in the City of New York, priority 2019, published 2023) come the findings set out here.

One test concerns MeV. Kind of test: lethal MeV encephalitis in IFNAR KO mice, intranasal peptide. Particulars: intranasal administration. The class given is in vivo.
The next test has as its system CNS-adapted MV. Kind of test: MeV infection of human motor neurons, CNS-adapted virus.

In the case of `CC[C@H](C)[C@H](NC(=O)[C@H](C)NC(=O)[C@H](CC(N)=O)NC(=O)CNC(=O)[C@H](CC(C)C)NC(=O)[C@H](CC(N)=O)NC(=O)[C@@H](NC(=O)CNC(=O)[C@@H](NC(=O)[C@H](CC(=O)O)NC(=O)[C@H](CC(C)C)NC(=O)[C@H](CCCNC(=N)N)NC(=O)[C@H](CCC(=O)O)NC(=O)[C@H](CC(C)C)NC(=O)[C@H](CO)NC(=O)[C@@H](NC(=O)[C@@H]1CCCN1C(=O)[C@@H]1CCCN1C(C)=O)[C@@H](C)CC)C(C)C)[C@@H](C)O)C(=O)N[C@@H](C)C(=O)N[C@@H](CCCCN)C(=O)N[C@@H](CC(C)C)C(=O)N[C@@H](CCC(=O)O)C(=O)N[C@@H](CC(=O)O)C(=O)N[C@@H](C)C(=O)N[C@@H](CCCCN)C(=O)N[C@@H](CCC(=O)O)C(=O)N[C@@H](CC(C)C)C(=O)N[C@@H](CC(C)C)C(=O)N[C@@H](CCC(=O)O)C(=O)N[C@@H](CO)C(=O)N[C@@H](CO)C(=O)N[C@@H](CC(=O)O)C(=O)N[C@@H](CCC(N)=O)C(=O)N[C@H](C(=O)N[C@@H](CC(C)C)C(=O)N[C@@H](CCCNC(=N)N)C(=O)NCC(=O)N[C@@H](CO)C(=O)NCC(=O)N[C@@H](CO)C(=O)NCC(=O)N[C@@H](CSC1CC(=O)N(CCCC(=O)NCCOCCOCCOCCOCCC(=O)NCCN(CCNC(=O)CCOCCOCCOCCOCCNC(=O)CCCN2C(=O)CC(SC[C@H](NC(=O)CNC(=O)[C@H](CO)NC(=O)CNC(=O)[C@H](CO)NC(=O)CNC(=O)[C@H](CCCNC(=N)N)NC(=O)[C@H](CC(C)C)NC(=O)[C@@H](NC(=O)[C@H](CCC(N)=O)NC(=O)[C@H](CC(=O)O)NC(=O)[C@H](CO)NC(=O)[C@H](CO)NC(=O)[C@H](CCC(=O)O)NC(=O)[C@H](CC(C)C)NC(=O)[C@H](CC(C)C)NC(=O)[C@H](CCC(=O)O)NC(=O)[C@H](CCCCN)NC(=O)[C@H](C)NC(=O)[C@H](CC(=O)O)NC(=O)[C@H](CCC(=O)O)NC(=O)[C@H](CC(C)C)NC(=O)[C@H](CCCCN)NC(=O)[C@H](C)NC(=O)[C@@H](NC(=O)[C@H](C)NC(=O)[C@H](CC(N)=O)NC(=O)CNC(=O)[C@H](CC(C)C)NC(=O)[C@H](CC(N)=O)NC(=O)[C@@H](NC(=O)CNC(=O)[C@@H](NC(=O)[C@H](CC(=O)O)NC(=O)[C@H](CC(C)C)NC(=O)[C@H](CCCNC(=N)N)NC(=O)[C@H](CCC(=O)O)NC(=O)[C@H](CC(C)C)NC(=O)[C@H](CO)NC(=O)[C@@H](NC(=O)[C@@H]3CCCN3C(=O)[C@@H]3CCCN3C(C)=O)[C@@H](C)CC)C(C)C)[C@@H](C)O)[C@@H](C)CC)[C@@H](C)CC)C(=O)O)C2=O)CCO[C@H]2CC[C@@]3(C)C(=CC[C@H]4[C@@H]5CC[C@H]([C@H](C)CCCC(C)C)[C@@]5(C)CC[C@@H]43)C2)C1=O)C(=O)O)[C@@H](C)CC` (some centres unmarked) [[HRC450-485-peg4]2-chol], the “protection from lethal MeV encephalitis” value in the test with MeV was “protects IFNAR KO mice from lethal MeV encephalitis”. Also, in the test on CNS-adapted MV, the “spread of CNS-adapted MV in human motor neurons” value is reported as “blocks spread of virus only at the highest concentration”.
